Compound potency records, mixed from different reports. Data source: NIAID ChemDB in PubChem.

All rows: growth or infection tests; species: HIV-1

ECn is the concentration giving n% inhibition of infection, replication or growth.

| smiles | mutations | cell line | measure | strain or isolate | method | result |
|---|---|---|---|---|---|---|
| C=CCN(C(=O)Cc1ccc(S(N)(=O)=O)cc1)C1CCN(C[C@H]2CN(C(=O)C3CCCC3)C[C@]2(O)c2ccccc2)CC1 | - | PBMC | EC50 | - | p24 | <0.005 µM |
| C[C@H](CCC(=O)NCCS(=O)(=O)O)[C@H]1CC[C@H]2[C@@H]3CC[C@@H]4C[C@H](O)CC[C@]4(C)C3CC[C@]12C | - | MOLT-4 | EC50 | NDK | cytopathic effect | 385 µg/mL |
| Cn1nc(Cc2ccccc2)cc1C1CCN(C[C@H]2CN([C@@H](C(=O)O)C3CCCCC3)C[C@@H]2c2ccccc2)CC1 | - | HeLa | EC50 | BaL | β-galactosidase | <0.0037 µM |
| N#Cc1ccc(Nc2nc(Oc3c(Cl)cc(Cl)cc3Cl)ncc2N)cc1 | - | MT-4 | EC50 | RES056 | MTT | 2.82 µM |
| CCN1c2ncc(CCOc3ccc(C(=O)O)c4ccccc34)cc2C(=O)N(C)c2cccnc21 | RT-K103N Y181C | C8166 | EC50 | - | p24 | <0.1 µM |
| CC(C)=CCN1Cc2cc(Cl)cc3[nH]c(=S)n(c23)C[C@@H]1C | - | CEM | EC50 | IIIB | syncytia | 0.015 ± 0.009 µg/mL |
| C=CCN(C(=O)NCc1ccc(C(F)(F)F)cc1)C1CCN([C@H]2CN(C(=O)C3CCCC3)C[C@]2(O)c2ccccc2)CC1 | - | PBMC | EC50 | - | p24 / ELISA | <0.005 µM |
| Cc1cc(C)c(Oc2ncc([N+](=O)[O-])c(Nc3ccc(C#N)cc3)n2)c(C)c1 | - | MT-4 | EC50 | IIIB | MTT | 0.0426 µM |
| Fc1ccc([C@H]2CCNC[C@@H]2COc2ccc3c(c2)OCCO3)cc1 | - | MOLT-3 | EC50 | IIIB | p24 | >4 µg/mL |
| COc1ccc(Cc2nccc3cc(OC)c(OC)cc23)cc1OC | - | MT-4 | EC50 | IIIB | cytopathic effect / MTT | >6 µg/mL |
| Cc1cn([C@H]2C[C@H](N=[N+]=[N-])[C@@H](CO)O2)c(=O)[nH]c1=O | INTG-G140S | MT-2 | EC50 | NL4-3 | - | 0.03 µM |
| CCN(C(=O)OCc1ccccc1)C1CCN(CC[C@H](CN(C)S(=O)(=O)c2ccccc2)c2cccc(Cl)c2)CC1 | - | PBMC | EC50 | BaL | p24 | <0.013 µM |
| Fc1ccc([C@@H]2CCNC[C@H]2COc2ccc3c(c2)OCCO3)cc1 | - | MOLT-3 | EC50 | IIIB | syncytia | >4 µg/mL |
| O=C(O)[C@@H](C1CCCCC1)N1C[C@H](CN2CCC(CCCc3ccccc3)CC2)[C@@H](c2ccccc2)C1 | - | HeLa | EC50 | BaL | β-galactosidase | <0.011 µM |
| COc1ccc(OC[C@H]2CNCC[C@@H]2c2ccc(F)cc2)cc1 | - | MOLT-3 | EC50 | IIIB | p24 | >4 µg/mL |
| Nc1ccn([C@H]2CC[C@@H](CO)O2)c(=O)n1 | - | MOLT-4 | EC50 | IIIB | cytopathic effect / MTT | 0.014 µM |
| CCOP(=O)(N[C@@H](CC(C)C)C(=O)OC)OC[C@H]1O[C@@H](n2cc(C)c(=O)[nH]c2=O)C[C@@H]1N=[N+]=[N-] | - | MT-4 | EC50 | IIIB | cytopathic effect / MTT | 0.2 µg/mL |
| CC(C)(C)[Si](C)(C)OC[C@H]1O[C@@H](n2cnc3[nH]c(=O)[nH]c(=O)c32)[C@H](O[Si](C)(C)C(C)(C)C)C12OS(=O)(=O)C=C2N | - | MT-4 | EC50 | IIIB | trypan blue | 0.23 µg/mL |
| N/C(=N/O)c1cccc(CN2C(=O)N[C@H](CCc3ccccc3)[C@@H](O)[C@H]2Cc2ccccc2)c1 | - | MT-2 | EC50 | RF | cytopathic effect / MTT | <0.37 µM |
| C=CCN(C(=O)OCc1ccc(S(=O)OC)cc1)C1CCN([C@H]2CN(C(=O)C3CCCC3)C[C@]2(O)c2ccccc2)CC1 | - | PBMC | EC50 | - | p24 / ELISA | >0.1 µM |
| Nc1ccn([C@H]2CC[C@@H](CO)O2)c(=O)n1 | - | MT-2 | EC50 | NL4-3:IN7-3) | - | 0.08 µM |
| C=CCN(C(=O)NCc1ccc(S(=O)(=O)N(C)C)cc1)C1CC2CCC(C1)N2C[C@H]1CN(C(=O)C2CCC(F)(F)CC2)C[C@]1(O)c1cccc(F)c1 | - | PBMC | EC50 | - | p24 | <0.005 µM |
| CC(C)(C)OC(=O)[C@@H]1CCCN1C[C@H](O)[C@H](Cc1ccccc1)NC(=O)[C@H](CC(N)=O)NC(=O)OCc1ccccc1 | - | MOLT-4 | EC50 | NDK | cytopathic effect | >100 µg/mL |
| CCCCCN1CC[C@H](c2ccc(F)cc2)[C@@H](COc2ccc3c(c2)OCCO3)C1 | - | MOLT-3 | EC50 | IIIB | p24 | >4 µg/mL |
| O=C1N(CC2CC2)[C@H](CCc2ccccc2)[C@@H](O)[C@@H](Cc2ccccc2)N1CC1CC1 | - | MT-2 | EC50 | RF | cytopathic effect / MTT | <5.2 µM |
| Cc1cn([C@H]2C[C@H](N=[N+]=[N-])[C@@H](CO)O2)c(=O)[nH]c1=O | - | MT-4 | EC50 | IIIB | cytopathic effect / MTT | 0.0015 µM |
| Cc1cn([C@H]2C[C@H](N=[N+]=[N-])[C@@H](CO)O2)c(=O)[nH]c1=O | RT-A62V V75I F77C F116Y Q151M | MT-4 | EC50 | XM-Q151M | p24 | <121 µM |
| CC(C)Nc1cccnc1N1CCN(C(=O)c2cc3cc(NS(C)(=O)=O)ccc3[nH]2)CC1 | - | PBMC | EC50 | HXB2D | p24 | 0.023 µM |
| Cc1ccc(-c2ccc3c(c2)C=C(C(=O)Nc2ccc(C[N+](C)(C)C4CCOCC4)cc2)CCC3)cc1 | - | PBMC | EC50 | SW | p24 | >20 µM |
| CC(=O)O[C@@]12C[C@@H](C)[C@@]3(O)[C@@H](C=C(CO)C[C@]4(O)C(=O)C(C)=C[C@@H]34)[C@@H]1C2(C)C | - | MT-4 | EC50 | NDK Subtype D | cytopathic effect / MTT | 0.07 µg/mL |
| Nc1ccn([C@H]2CC[C@@H](CO)O2)c(=O)n1 | - | PBMC | EC50 | HXB2D | p24 | 0.041 µM |
| O=c1[nH]cnc2c1ncn2[C@H]1CC[C@@H](CO)O1 | RT-M184V | PBMC | EC50 | RT-M184V XM-M184V | p24 | <25 µM |
| Cc1cn([C@H]2C[C@H](N=[N+]=[N-])[C@@H](CO)O2)c(=O)[nH]c1=O | NNRTI-resistant (RT V106A) | MT-4 | EC50 | - | - | 0.002 µM |
| CCN1c2ncc(CCOc3ccc(C(=O)O)c4ccccc34)cc2C(=O)N(C)c2ccc(Cl)nc21 | - | C8166 | EC50 | WT | p24 | <0.1 µM |
| Nc1nc(=O)n([C@H]2CO[C@@H](CO)S2)cc1F | - | PBMC | EC50 | HXB2D | p24 | 1.5 µM |
| CCN1c2ncc(CCOc3ccc(CC(=O)O)c4ccccc34)cc2C(=O)N(C)c2ccc(F)nc21 | - | C8166 | EC50 | WT | p24 | <0.1 µM |
| COc1ccc(OC[C@@H]2CN(C)CC[C@H]2c2ccccc2)cc1 | - | MOLT-3 | EC50 | IIIB | syncytia | 20 µg/mL |
| O=C(O)[C@@H](C1CCCCC1)N1C[C@H](CN2CCC(c3cc(-c4ccc(Cl)cc4)n[nH]3)CC2)[C@@H](c2cccc(F)c2)C1 | - | HeLa | EC90 | BaL | β-galactosidase | >0.3 µM |
| C=C(CC(=O)O)c1ccc(OCCc2cnc3c(c2)C(=O)N(C)c2cccnc2N3CC)c2ccccc12 | - | C8166 | EC50 | WT | p24 | <0.1 µM |
| Cc1cn([C@@H]2O[C@H](CO[Si](C)(C)C(C)(C)C)[C@@]3(OS(=O)(=O)C=C3N)[C@H]2O[Si](C)(C)C(C)(C)C)c(=O)[nH]c1=O | - | CEM | EC50 | IIIB | syncytia | 0.03 ± 0.005 µg/mL |
| C=CCN(C(=O)NCc1ccc(C(F)(F)F)cc1)C1CCN(C[C@H]2CN(C(=O)C3CCCC3)C[C@]2(O)c2ccccc2)CC1 | - | PBMC | EC50 | - | p24 | <0.005 µM |
| C=C1[C@H](CO)[C@@H](O)C[C@@H]1n1cnc2c(=O)[nH]c(N)nc21 | - | MT-4 | EC50 | IIIB | MTT | 0.0022 µM |
| O=C(O)[C@@H](C1CCCCC1)N1C[C@H](CN2CCC(c3cc(Cc4ccccc4)[nH]n3)CC2)[C@@H](c2ccccc2)C1 | - | HeLa | EC50 | BaL | β-galactosidase | <0.0004 µM |
| O=C(O)C1=CC(=C(c2ccc(O)c(C(=O)O)c2)c2ccc(O)c(C(=O)O)c2)C=CC1=O | - | C8166 | EC50 | RF | p24 | 2.5 µg/mL |
| Cc1cn([C@H]2C[C@H](N=[N+]=[N-])[C@@H](CO)O2)c(=O)[nH]c1=O | - | MT-2 | EC50 | LAI | p24 / luciferase | 0.23 µg/mL |
| C=CCN(C(=O)OCc1ccc(C(F)(F)F)cc1)C1CCN([C@H]2CN(C(=O)C3CCCC3)C[C@]2(O)c2ccccc2)CC1 | - | PBMC | EC50 | - | p24 / ELISA | <0.099 µM |
| N#Cc1cccc(CN2C(=O)N(Cc3cccc(C#N)c3)[C@H](Cc3ccc(F)cc3)[C@H](O)[C@H]2CCc2ccc(F)cc2)c1 | - | MT-2 | EC50 | RF | cytopathic effect / MTT | <1.56 µM |
| CC(C)(C)[Si](C)(C)OC[C@H]1O[C@@H](n2cnc3nc[nH]c(=O)c32)[C@H](O[Si](C)(C)C(C)(C)C)C12OS(=O)(=O)C=C2N | - | C8166 | EC50 | IIIB | syncytia | 0.4 µg/mL |
| CCCCCN1CC[C@@H](c2ccc(F)cc2)[C@H](COc2ccc3c(c2)OCCO3)C1 | - | MOLT-3 | EC50 | IIIB | p24 | >4 µg/mL |
| Nc1ccn([C@H]2CC[C@@H](CO)O2)c(=O)n1 | - | MOLT-4 | EC50 | NDK | cytopathic effect | <0.01 µg/mL |
| C=CCN(C(=O)NCc1ccc(F)c(F)c1)C1CCN(C[C@H]2CN(C(=O)C3CCCC3)C[C@]2(O)c2ccccc2)CC1 | - | PBMC | EC50 | - | p24 | 0.006–0.05 µM |
| O=c1[nH]cnc2c1ncn2[C@H]1CC[C@@H](CO)O1 | - | PBMC | EC50 | 8684 CLADE C CLADE C | p24 | 1.87 µM |
| Nc1nc(=O)n([C@@H]2CO[C@H](CO)S2)cc1F | - | PBMC | EC50 | HXB2D | p24 | 1 µM |
| C=CCN(C(=O)CCc1ccccc1)C1CCN(C[C@H]2CN(C(=O)C3CCCC3)C[C@]2(O)c2ccccc2)CC1 | - | PBMC | EC50 | - | p24 | >0.1 µM |
| CC(C)(C)[Si](C)(C)OC[C@H]1O[C@@H](n2cnc3c(N)ncnc32)[C@H](O[Si](C)(C)C(C)(C)C)C12OS(=O)(=O)C=C2N | - | MT-4 | EC50 | IIIB | trypan blue | 0.27 µg/mL |
| CCN1c2ncc(CCOc3ccc(CCC(=O)NN)c4ccccc34)cc2C(=O)N(C)c2cccnc21 | RT-K103N Y181C | C8166 | EC50 | - | p24 | 0.1–1 µM |
| CC(C)(C)OC(=O)[C@@H]1CCCN1C[C@@H](O)[C@H](Cc1ccccc1)NC(=O)[C@H](CC(N)=O)NC(=O)OCc1ccccc1 | - | MOLT-4 | EC50 | NDK | cytopathic effect | 74 µg/mL |
| O=C(NC(=S)Nc1ccc(Br)cn1)c1ccccc1[N+](=O)[O-] | - | MT-2 | EC50 | ROD | MTT | >10 µM |
| CCn1cnc2ncn([C@@H]3O[C@H](CO[Si](C)(C)C(C)(C)C)C4(OS(=O)(=O)C=C4N)[C@H]3O[Si](C)(C)C(C)(C)C)c2c1=O | - | CEM | EC50 | IIIB | syncytia | 0.12 µg/mL |
| CCN1c2ncc(CCOc3ccc(C(=O)O)c4c3CCCC4)cc2C(=O)N(C)c2cccnc21 | RT-K103N Y181C | C8166 | EC50 | - | p24 | <0.1 µM |
| O=C1N(Cc2cccc(CO)c2)[C@H](CCc2ccccc2)[C@@H](O)[C@@H](Cc2ccccc2)N1Cc1cccc(CO)c1 | - | MT-2 | EC50 | RF | cytopathic effect / MTT | <0.109 µM |
| CC(=O)Nc1cnc(Oc2c(Cl)cccc2Cl)nc1Nc1ccc(C#N)cc1 | - | MT-4 | EC50 | RES056 | MTT | >193.7 µM |

Two numbers with a dash give a range or band. Blank or dashed fields: not listed here. Rows are shuffled and stem from different studies.